Anti-infective test results gathered from many reports (values: NIAID ChemDB through PubChem).

All rows: tests in culture; organism: HIV-1; read-out: EC50

ECn is the concentration giving n% inhibition of infection, replication or growth. Neighbouring rows are from separate reports. An empty or dashed field is not shown.

structure,cell line,mutations,strain or isolate,result
O=C(Cc1nc(=O)n(O)c2ncccc12)NCc1ccccc1,PM1,RT-R172K IN-G189R,BaL,0.0005 µM
CNC(=O)c1c(O)c2ncc(Cc3ccc(F)cc3)c3c2n(c1=O)C[C@](C)(c1nnc(C)o1)O3,MT-2,-,IIIB,0.0034 µM
Nc1ccn([C@H]2C=C[C@@H](CO)O2)c(=O)n1,PBMC,-,-,0.005 µM
CN(C)CCCN=C(N)c1ccc(C(N)=NCCCN(C)C)cc1,PBMC,-,IIIB,11 µM
CCCCCCCCCCCN1C=Cc2cc(OC)c(O)c3c2c1cc[n+]3CCCCCCCCCCC,PBMC,-,-,2.8 µM
O=c1[nH]c(SCc2cn[nH]n2)nc(-c2ccc(Cl)cc2)c1Cl,-,-,ADA5,0.32 µg/mL
COc1ccnc2[nH]cc(C(=O)C(=O)N3CCN(C(=O)c4ccccc4)C[C@H]3C)c12,HeLa,-,JR-FL,0.2 µM
C/C(=C(/CCO)SS/C(CCO)=C(\C)N(C=O)Cc1cnc(C)nc1N)N(C=O)Cc1cnc(C)nc1N,CEM-SS,-,-,>100 µM
Nc1ccn([C@@H]2C[C@H](CO)CO2)c(=O)n1,-,-,-,>100 µM
O=C(NCCCc1cn([C@H]2C=C[C@@H](CO)O2)c(=O)[nH]c1=O)C(F)(F)F,MT-4,-,IIIB,>100 µM
CCCOc1nc(N)nc2c1ncn2[C@@H]1C[C@H](CO)C2CC21,-,-,-,>100 µg/mL
COc1ccc(C(=O)Oc2cc(OC)c(OC)c(OC)c2)cc1NC(=O)C(C)Br,H9,-,-,0.017 µM
NC(N)=Nc1cccc(Oc2ccccc2)c1,C8166,-,IIIB,6 µM
Nc1ncnc2c1ncn2[C@@H]1C[C@H](CO)C2CC21,-,-,-,>100 µg/mL
C[C@]1(CO)O[C@@H](n2cnc3c(=O)[nH]c(N)nc32)[C@H](O)[C@@H]1O,MT-4,-,IIIB,>100 µM
Cc1cn([C@H]2C[C@H](N=[N+]=[N-])[C@@H](CO)O2)c(=O)[nH]c1=O,MT-4,-,IIIB,0.0026 µM
CCc1c(-c2coc(CC/C(C)=C/c3ccccc3)n2)oc(OC)c(C)c1=O,MT-4,-,IIIB,0.0066 µM
CCCc1c(OC2CCCC2)c2cc(OC)ccc2[nH]c1=O,MT-4,-,-,0.47 µM
CC1(CO)O[C@H](n2cnc3c(N)ncnc32)[C@@H](O)[C@H]1O,MT-4,-,IIIB,>100 µM
CC(C)(C)NC(=O)[C@@H]1C[C@@H]2CCCC[C@@H]2CN1C[C@@H](O)[C@H](Cc1ccccc1)NC(=O)[C@@H](NC(=O)Cc1cc2c(O)cccc2cn1)C(C)(C)S(C)(=O)=O,PBMC,-,NL4-3,0.019 µM
CC(C)c1c(OCC2CCC2)c2cnccc2[nH]c1=O,MT-4,RT-Y181C,Nevirapine-resistant (RT Y181C),0.64 µM
Cc1cc(S(N)(=O)=O)ccc1NC(=O)COc1ccc(Cl)cc1C(=O)c1cc(F)cc(C(F)(F)F)c1,MT-4,-,IIIB,0.0005 µM
O=C(O)C(=O)/C=C(\O)c1cc(Cc2ccccc2)cn(Cc2ccccc2)c1=O,PBMC,-,NL4-3,0.61 µM
Nc1ncnc2c1ncn2C/C=C(/CO)c1ccccc1,-,-,-,>100 µg/mL
C[n+]1ccc(-c2c3nc(c(-c4ccccc4)c4ccc([nH]4)c(-c4cc[n+](C)cc4)c4nc(c(-c5ccccc5)c5ccc2[nH]5)C=C4)C=C3)cc1,PBMC,-,LAV,0.34 µM
Nc1ncnc2c1ncn2NC(=O)COCP(=O)(O)O,-,-,-,>10 µM
NC(=NC1CCCC1)c1ccc(-c2ccc(-c3ccc(C(N)=NC4CCCC4)cc3)o2)cc1,-,-,-,12 µM
NC(=O)[C@@H](N)Cc1c[nH]c2ccccc12,CEM,-,IIIB,200 µM
Nc1ncnc2c1ncn2CC=C(CO)CO,-,-,-,>100 µg/mL
CCCCO[C@]12CS(=O)(=O)O[C@@]13C(CN2)O[C@@H](n1cc(C)c(=O)[nH]c1=O)[C@@H]3O[Si](C)(C)C(C)(C)C,CEM,-,IIIB,>10 µM
Cc1c(-c2c([C@H](OC(C)(C)C)C(=O)O)cnc3ccccc23)cc(F)c2c1CCCO2,MT-2,-,-,0.1 µM
C[C@@H]1O[C@](C#CC2CC2)(C(F)(F)F)c2cc(Cl)ccc2NC1=O,-,RT-K103N,-,<0.029 µM
NC(N)=Nc1cccc(OCc2ccccc2)c1,C8168,-,IIIB,6 µM
OC/C(=C/Cn1cnc2c(Cl)ncnc21)c1ccccc1,-,-,-,>100 µg/mL
Cc1cn([C@@H]2O[C@@H]3CN[C@@]4(OCc5ccccc5)CS(=O)(=O)O[C@@]34[C@H]2O)c(=O)[nH]c1=O,CEM,-,IIIB,>100 µM
C=C1C(n2ccc(N)nc2=O)C=CC1(CO)CO,MT-4,-,-,10.67 µM
C=C1[C@H](CO)OC[C@@H]1n1cnc2c(=O)[nH]c(N)nc21,-,-,-,>100 µM
Cc1cn([C@@H]2O[C@H](CO[Si](C)(C)C(C)(C)C)[C@@]3(OS(=O)(=O)C([N+](=O)[O-])=C3N)[C@H]2O[Si](C)(C)C(C)(C)C)c(=O)n(C)c1=O,MT-4,-,-,5.99 µM
CCc1c(Cc2ccc(Cl)cc2)n(COCc2ccccc2)c(=O)[nH]c1=O,MT-4,-,IIIB,5 µM
COc1ccc([C@H]2c3c(cc4c(c3OC)OCO4)C[C@H]3CSC[C@@H]32)cc1OCc1ccccc1,MT-4,-,IIIB,5.06 µM
NC(=O)[C@@H](N)CO,CEM,-,IIIB,1000 µM
COc1cc2ccnc3c2c(c1OS(=O)(=O)c1ccccc1)N(C)C=C3,PBMC,-,-,8.1 µM
O=C1Nc2ccc(Cl)cc2[C@@](/C=C/C2CC2)(C(F)(F)F)N1,-,RT-K103N,-,<0.027 µM
CCC(C)C#COc1c(C(C)C)c(=O)[nH]c2ccc(F)cc12,MT-4,-,-,0.03 µM
Nc1ccn([C@@H]2OCC(CO)=C2F)c(=O)n1,-,-,-,>100 µg/mL
Cc1cc(C#N)cc(C)c1Oc1nc(Nc2ccc(C#N)cc2)nc(N)c1Br,TZM-bl,-,-,0.0056 µM
C/C(=C\Cn1cnc2c(Cl)ncnc21)CO,-,-,-,>100 µg/mL
COC(=O)[C@H](C)NP(=O)(OC[C@H]1C=C[C@@H](n2cc(CC(=O)NCCCCCCCCCCCCNC(=O)C(F)(F)F)c(=O)[nH]c2=O)O1)Oc1ccccc1,MT-4,-,IIIB,10 µM
Nc1ccn([C@@H]2C=C(F)[C@H](CO)O2)c(=O)n1,PBMC,-,-,0.03 µM
CC(C)C#C[C@]1(C(F)(F)F)OCC(=O)Nc2ccc(Cl)cc21,-,RT-K103N,-,<0.784 µM
Nc1ccnc2c1ncn2[C@H]1CC[C@@H](CO)O1,C8166,-,IIIB,500 µM
CCCCc1cn(-c2cccc(S(=O)(=O)Nc3cccc4cnccc34)c2)nn1,PBMC,-,-,9.5 µM
CN(C[C@@H](CCN1CCC2(CC1)CS(=O)c1ccccc12)c1ccc(Cl)c(Cl)c1)S(=O)(=O)c1ccc(-c2ccon2)s1,PBMC,-,YU2,<12.5 µM
O=c1[nH]c(SCc2cn[nH]n2)nc(-c2ccccc2)c1Cl,-,-,ADA5,1.2 µg/mL
CC1=CC=CC2C1=NC(c1ccncc1)N2Cc1c(F)cccc1F,CEM,-,-,3.5 µM
Cc1cn([C@H]2C=C[C@@H](CO)O2)c(=O)[nH]c1=O,MT-4,-,-,1.2 µM
Nc1nc2c(ncn2C/C=C(/CO)c2ccccc2)c(=O)[nH]1,-,-,-,>100 µg/mL
CC(C)Cc1c(OCC2CCC2)c2cnccc2[nH]c1=O,MT-4,-,-,0.07 µM
CSCC[C@H](N)C(N)=O,CEM,-,IIIB,500 µM
CCc1c(OC)nc(OC)nc1C(=O)c1ccccc1,-,-,-,3.15 µM
Nc1ccn([C@H]2C=C(F)[C@@H](CO)O2)c(=O)n1,PBMC,-,-,0.94 µM
Cc1cn([C@@H]2O[C@@H]3CN[C@@]4(C#N)CS(=O)(=O)O[C@@]34[C@H]2O[Si](C)(C)C(C)(C)C)c(=O)[nH]c1=O,MT-4,-,IIIB,>50 µM
O=C(Cc1cn([C@H]2C=C[C@@H](CO)O2)c(=O)[nH]c1=O)NCCCCCCCCCCCCNC(=O)c1c2ccccc2nc2ccccc12,MT-4,-,IIIB,>10 µM
Nc1ccn([C@@H]2O[C@H](CO)C=C2F)c(=O)n1,PBMC,-,-,0.37 µM
C=C(C)[C@@H]1CC[C@]2(COC(=O)CC(C)(C)C(=O)O)CC[C@@H]3[C@H](CC[C@H]4[C@H]3CC[C@H]3C(C)(C)[C@@H](O)CC[C@]43C)[C@@H]12,H9,-,-,<0.18 µM
C=C1C(n2cnc3c(N)ncnc32)C=CC1(CO)CO,MT-4,-,-,55.5 µM
Nc1nc2c(ncn2[C@@H]2C[C@H](CO)C3CC32)c(=O)[nH]1,-,-,-,>100 µg/mL
CCCc1c(OC#CC2CC2)c2cc(Cl)ccc2[nH]c1=O,MT-4,RT-Y181C,Nevirapine-resistant (RT Y181C),0.083 µM
N#Cc1cc(Cl)cc(Oc2c(Br)ccc(CC(=O)Nc3ccc(S(N)(=O)=O)cc3Cl)c2F)c1,MT-4,Y181C,-,0.0014 µM
Nc1cc(Cl)nc2c1ncn2[C@H]1CC[C@@H](CO)O1,C8166,-,IIIB,>1000 µM
CN(C[C@@H](CCN1CCC2(CC1)CS(=O)c1ccccc12)c1ccc(Cl)c(Cl)c1)S(=O)(=O)c1ccccc1,PBMC,-,YU2,<12 µM
Cc1cn([C@H]2C=C[C@@H](OCP(=O)(O)O)O2)c(=O)[nH]c1=O,MT-4,-,-,1.3 µM
NCCS,CEM-SS,-,-,>100 µM
CCC(CC)N=C(N)c1ccc(-c2ccc(-c3ccc(C(N)=NC(CC)CC)cc3)o2)cc1,-,-,-,7 µM
Nc1nc2c(ncn2[C@@H]2C[C@H](CO)CO2)c(=O)[nH]1,-,-,-,>100 µM
O=C(O)[C@H]1O[C@@H](Oc2cc3oc(-c4ccccc4)cc(=O)c3c(O)c2O)[C@H](O)[C@@H](O)[C@@H]1O,HOS-CD4-CXCR4 + HOS,-,ENV(BAL31),4 µM
CCOc1c(OCC2CCC2)c2cc(F)ccc2[nH]c1=O,MT-4,RT-Y181C,Nevirapine-resistant (RT Y181C),1 µM
COC[C@@H](c1ccc(C(F)(F)F)cc1)N1CCN(C2(C)CCN(C(=O)c3c(C)ncnc3C)CC2)C[C@@H]1C,PBMC,G514V,R14/S,0.00025 µM
O=c1nc(NCc2ccc(-c3ccccn3)s2)c2cccnc2n1O,PM1,RT-R172K,BaL,0.15 µM
CC(C)c1c(OC#CC2CC2)c2cc(Cl)ccc2[nH]c1=O,MT-4,-,-,0.02 µM
O=C(Cc1cn([C@H]2C=C[C@@H](CO)O2)c(=O)[nH]c1=O)NCCCCCCCCCCNC(=O)c1c2ccccc2nc2ccccc12,MT-4,-,IIIB,>10 µM
COc1cc2ccnc3c2c(c1OCCCCCCCCCOc1c(OC)cc2ccnc4c2c1N(C)C=C4)N(C)C=C3,PBMC,-,-,0.52 µM
CC[C@@H]1O[C@](C#CC2CC2)(C(F)(F)F)c2cc(F)ccc2NC1=O,-,RT-K103N,-,<0.117 µM
COC(=O)[C@H](C)NP(=O)(OC[C@@H]1C=C[C@H](n2cc(CC(=O)NCCCCCCCCNC(=O)C(F)(F)F)c(=O)[nH]c2=O)O1)Oc1ccccc1,MT-4,-,IIIB,>100 µM
O[C@H]1OC[C@H](Cc2ccc3c(c2)OCO3)[C@H]1Cc1ccc2c(c1)OCO2,H9,-,-,0.85 µg/mL
Nc1nc2c(ncn2CC=C(CO)CO)c(=O)[nH]1,-,-,-,>100 µg/mL
C[n+]1ccc(-c2c3nc(c(-c4cc[n+](C)cc4)c4ccc([nH]4)c(-c4cc[n+](C)cc4)c4nc(c(-c5cc[n+](C)cc5)c5ccc2[nH]5)C=C4)C=C3)cc1,PBMC,-,LAV,3.23 µM

A second listing of 8 rows from above:

| structure | cell line | mutations | strain or isolate | result |
|---|---|---|---|---|
| CCCCCCCCCCCN1C=Cc2cc(OC)c(O)c3c2c1cc[n+]3CCCCCCCCCCC | PBMC | - | - | 2.8 µM |
| NC(N)=Nc1cccc(OCc2ccccc2)c1 | C8168 | - | IIIB | 6 µM |
| Nc1ccn([C@@H]2OCC(CO)=C2F)c(=O)n1 | - | - | - | >100 µg/mL |
| CC(C)(C)NC(=O)[C@@H]1C[C@@H]2CCCC[C@@H]2CN1C[C@@H](O)[C@H](Cc1ccccc1)NC(=O)[C@@H](NC(=O)Cc1cc2c(O)cccc2cn1)C(C)(C)S(C)(=O)=O | PBMC | - | NL4-3 | 0.019 µM |
| O=c1[nH]c(SCc2cn[nH]n2)nc(-c2ccc(Cl)cc2)c1Cl | - | - | ADA5 | 0.32 µg/mL |
| Cc1cn([C@@H]2O[C@@H]3CN[C@@]4(OCc5ccccc5)CS(=O)(=O)O[C@@]34[C@H]2O)c(=O)[nH]c1=O | CEM | - | IIIB | >100 µM |
| CN(C)CCCN=C(N)c1ccc(C(N)=NCCCN(C)C)cc1 | PBMC | - | IIIB | 11 µM |
| NC(=NC1CCCC1)c1ccc(-c2ccc(-c3ccc(C(N)=NC4CCCC4)cc3)o2)cc1 | - | - | - | 12 µM |